{
  "source": "patent US11524046B2",
  "about": "“Biofilm prevention, disruption and treatment with bacteriophage lysin” (priority 2012, dated 2022)",
  "molecules": {"B1": {"name": "PlySs2: bacteriophage lysin derived from Streptococcus suis, amino acid sequence of FIG. 5 / SEQ ID NO: 1; CHAP and SH3 domains (protein, listed as Streptococcus suis)", "chain": "MTTVNEALNNVRAQVGSGVSVGNGECYALASWYERMISPDATVGLGAGVGWVSGAIGDTISAKNIGSSYNWQANGWTVSTSGPFKAGQIVTLGATPGNPYGHVVIVEAVDGDRLTILEQNYGGKRYPVRNYYSAASYRQQVVHYITPPGTVAQSAPNLAGSRSYRETGTMTVTVDALNVRRAPNTSGEIVAVYKRGESFDYDTVIIDVNGYVWVSYIGGSGKRNYVATGATKDGKRFGNAWGTFK"}},
  "test_system": "MRSA biofilms grown on catheters (strain ATCC BAA-42)",
  "experiment": "Catheter biofilm residual CFU, BacTiter-Glo luciferase estimate",
  "details": "1×MIC (32 ug/mL)",
  "data": [
    {"molecule": "B1", "values": [
      {"measurement": "time by which CFU values are at the limit of detection (100 CFU/ml)", "result": "≤ 60", "unit": "min"}
    ]}
  ]
}
